Measured values published in patent US20260069689A1, “ANTI-SARS-COV-2-SPIKE GLYCOPROTEIN ANTIBODIES AND ANTIGEN-BINDING FRAGMENTS” (Regeneron, published 2026).
Several values for one entry are separate records, joined by “and”; a condition that tells them apart may be missing. Equal values may be shown once.

How the values were obtained:
[1] = target: SARS-CoV-2 D614G spike protein variant (SARS-CoV-2); experiment: cell-based or functional assay
[2] = target: Omicron variant SARS-CoV-2 spike glycoprotein (SEQ ID NO: 1073) (SARS-CoV-2); experiment: cell-based or functional assay
[3] = target: SARS-CoV-2 spike protein, full P.1 variant (SARS-CoV-2); experiment: cell-based or functional assay
[4] = target: SARS-CoV-2 S protein variant B.1.617.2 (Delta) (SARS-CoV-2, T19R; G142D; E156G; F157del; R158del; L452R; T478K; D614G; P681R; D950N); experiment: cell-based or functional assay
[5] = target: human FcγR3a 176Val allotype receptor (human, UniProt P08637 17-254); experiment: cell-based or functional assay
[6] = target: SARS-CoV-2 S protein variant P.1 (full sequence) (SARS-CoV-2); experiment: cell-based or functional assay
[7] = target: SARS-CoV-2 S protein variant B.1.617.2 (full sequence) (SARS-CoV-2, T19R; G142D; E156G; F157del; R158del; L452R; T478K; D614G; P681R; D950N); experiment: cell-based or functional assay
[8] = target: SARS-CoV-2 S protein variant B.1.617.1 (full sequence) (SARS-CoV-2); experiment: cell-based or functional assay
[9] = target: SARS-CoV-2 S protein variant BA.3 (full sequence) (SARS-CoV-2); experiment: cell-based or functional assay
[10] = target: SARS-CoV-2 S protein variant BA.4/BA.5 (full sequence) (SARS-CoV-2); experiment: cell-based or functional assay
[11] = target: SARS-CoV-2 S protein variant C.1.2 (SARS-CoV-2); experiment: cell-based or functional assay
[12] = target: SARS-CoV-2 RBD.mmh (Spike amino acids Arg319-Phe541 with C-terminal myc-myc-6-Histidine tag) (SARS-CoV-2, UniProt P0DTC2 319-541)
[13] = target: SARS-COV-2 RBD-MMH (SARS-COV-2 RBD extracellular domain with C-terminal myc-myc-hexahistidine tag) (SARS-CoV-2)

B1: mAb15156 (antibody)
heavy: not shown
light: QSVLTQPPSASGTPGQRVTISCSGSRSNIGINTVNWYQQFPGTALNLLIFSDNQRPSGVPDRFSGSKSGTSASLAISGLQSEDEADYYCAAWDDSLNGPDWVFGGGTKLTVLGQPKAAPSVTLFPPSSEELQANKATLVCLISDFYPGAVTVAWKADSSPVKAGVETTTPSKQSNNKYAASSYLSLTPEQWKSHRSYSCQVTHEGSTVEKTVAPTECS
IC50 (pseudoparticle neutralization) [1]: 0.462 pM
IC50 (pseudoparticle neutralization) [2]: 0.496 pM
log10 FC of IC50 relative to D614G control [2]: 1.87 log10 fold

B2: mAb14256 (antibody)
heavy: not shown
light: QSVLTQPPSVSGAPGQRVTISCTGSSSNIGTHYDVHWYQQLPGTAPKLLIYGNSNRPSGVPDRFSGSKSGTSASLAITGLQAEDEADYYCQSFDNSLTAPYVFGTGTKVTVLGQPKAAPSVTLFPPSSEELQANKATLVCLISDFYPGAVTVAWKADSSPVKAGVETTTPSKQSNNKYAASSYLSLTPEQWKSHRSYSCQVTHEGSTVEKTVAPTECS
IC50 (pseudoparticle neutralization) [3]: 13 pM
IC50 (pseudoparticle neutralization) [1]: 53.3 pM

B3: mAb14287 (antibody, V domains shown)
VH: QVQLVQSGAEVKKPGSSVKVSCKASGGTFSNNAISWVRQAPGQGLEWMGKIIPILGIGGDAQKFQGRFTITADKSTSTAYMELSSLRSEDTAVYYCANSGDSRPHAFDIWGQGTMVTVSS
VL: QSALTQPASVSGSPGQSITISCTGTSSDVGSYNLVSWYQQHPGKAPKLMIYEVSKRPSGVSNRFSGSKSGNTASLTISGLQAEDEADYYCSSYAGSRREVFGGGTKLTVLG
IC50 (pseudoparticle neutralization) [1]: 2.18 pM
IC50 (pseudoparticle neutralization) [2]: 4.42 pM
IC50 FC (fold change relative to D614G control) [2]: 0.2 fold
log10 FC of IC50 relative to D614G control [2]: -0.69 log10 fold

B4: mAb10933 (Casirivimab) (antibody, V domains shown)
VH: QVQLVESGGGLVKPGGSLRLSCAASGFTFSDYYMSWIRQAPGKGLEWVSYITYSGSTIYYADSVKGRFTISRDNAKSSLYLQMNSLRAEDTAVYYCARDRGTTMVPFDYWGQGTLVTVSS
VL: DIQMTQSPSSLSASVGDRVTITCQASQDITNYLNWYQQKPGKAPKLLIYAASNLETGVPSRFSGSGSGTDFTFTISGLQPEDIATYYCQQYDNLPLTFGGGTKVEIKR
IC50 [4]: 4.32 pM
IC90 [4]: 42.3 pM

B5: mAb15150 (antibody, V domains shown)
VH: EVQLVETGGGLIQPGGSLRLSCAAPGFIVSSNYMSWVRQAPGKGLEWVSLLYPGGSTYYADSVKGRFTISRDNSKNTLYLQMNSLRADDTAVYYCARVLPIVEDHFDYWGQGTLVTVSS
VL: DIQLTQSPSFLSASVGDRVTITCRASQGMSSYLAWYQKKPGKAPKLLIYGATILQSGVPSRFSGSGSGTEFTLTISSLQPEDFATYYCQQLNSDPLYMYTFGQGTKLEIKR
IC50 (pseudoparticle neutralization) [1]: 0.852 pM
IC50 (pseudoparticle neutralization) [2]: 1.23 pM
log10 FC of IC50 relative to D614G control [2]: 2.59 log10 fold

B6: mAb14294 (antibody, V domains shown)
VH: EVQLVESGGGLVQPGGSLRLSCAASGFTFSNHWMDWVRQAPGKGLVWVSRINSDGSSTDYADSVRGRFTMSRDNAKNTLYLQMSSLRAEDTAVYYCAREGMIFGAVIIPGWYFDLWGRGALVTVSS
VL: EIVLTQSPGTLSLSPGERATLSCRASQSVSSSQLAWYQQKPGQAPRLLIYGASSRATGIPDRFSGSGSGTDFTLTISRLEPEDFAVYYCQQYDSFGQGTKLEIKR
IC50 (pseudoparticle neutralization) [1]: 5 pM
IC50 (pseudoparticle neutralization) [2]: 6.67 pM
IC50 FC (fold change relative to D614G control) [2]: 1420 fold
log10 FC of IC50 relative to D614G control [2]: 3.15 log10 fold

B7: mAb14255 (antibody)
heavy: not shown
light: QSALTQPASVSGSPGQSITISCTGTSSDVGSYNLVSWYQQHPGKAPKLMIYEDSKRPSGVANPFSGSKSGNTASLTISGLQAEDEADYYCSSYAGSSTWVFGGGTKLTVLGQPKAAPSVTLFPPSSEELQANKATLVCLISDFYPGAVTVAWKADSSPVKAGVETTTPSKQSNNKYAASSYLSLTPEQWKSHRSYSCQVTHEGSTVEKTVAPTECS
IC50 (pseudoparticle neutralization) [3]: 41 pM

B8: mAb10987 (antibody)
heavy: not shown
light: QSALTQPASVSGSPGQSITISCTGTSSDVGGYNYVSWYQQHPGKAPKLMIYDVSKRPSGVSNRFSGSKSGNTASLTISGLQSEDEADYYCNSLTSISTWVFGGGTKLTVLGQPKAAPSVTLFPPSSEELQANKATLVCLISDFYPGAVTVAWKADSSPVKAGVETTTPSKQSNNKYAASSYLSLTPEQWKSHRSYSCQVTHEGSTVEKTVAPTECS
Fold induction, Jurkat CD20 [5]: 1 fold
Fold induction, Jurkat/CD20/spike [5]: 4.5 fold

B9: mAb14284 (antibody, V domains shown)
VH: QITLKESGPTLVKPTQTLTLTCTFSGFSFSTSGVGVGWIRQPPGKTLEWLALIYWDDDKRYSPSLKSRLTITKDTSKNQVVLTMTNMDPVDTATYFCAHHGIPTIFGYWGQGALVTVSS
VL: QSALTQPASVSGSPGQSITISCTGTSSDLGVFNYVSWYQQHPGKAPKLMIYEVTNRPSGVSNRFSGSKSGNTASLTISGLQAEDEADYYCSSYTTSSTVFGGGTKLTVLG
IC50 [6]: 8.34 pM
IC90 [6]: 75.2 pM
IC50 [7]: 6.09 pM
IC90 [7]: 60.7 pM
IC50 [8]: 42.4 pM
IC90 [8]: 384 pM
IC50 [9]: 22.2 pM
IC90 [9]: 441 pM
IC50 [10]: 18.5 pM
IC90 [10]: 189 pM
IC50 [11]: 31.6 pM
IC90 [11]: 320 pM

B10: mAb14235 (antibody, V domains shown)
VH: QITLKESGPTLVKPTQTLTLTCTFSGFSLNTGGVGVGWIRQPPGNALEWLALIYWDDDKRYNPSLKTRLTISKDTSKNQVVLTMTNMDPVDTATYFCAHLTIAVIVDFWGQGTLVTVSS
VL: QSALTQPASVSGSPGQSITISCTATSSDVGTYNYVSWFQHHPGKAPKLMIYEVTNRPSGVSNRFSGSKSGNTASLTISGLQAEDEADYYCSSYTTTSIVFGGGTKLTVLG
% Blocking at 100 nM mAb concentration [12]: 96%
RBD.mmh Bound at pH 7.4 (RU) [13]: 71.2 RU and 80.8 RU

B11: mAb14312 (antibody)
heavy: not shown
light: QSVLTQPPSVSGAPGQRVTISCTGSSSNIGAGDDVHWYQQLPGTAPKLLIYGNSNRPSGVPDRFSGSKSGTSASLAITGLQAEDEADYYCQSYDSSLSGSVVFGGGTKLTVLGQPKAAPSVTLFPPSSEELQANKATLVCLISDFYPGAVTVAWKADSSPVKAGVETTTPSKQSNNKYAASSYLSLTPEQWKSHRSYSCQVTHEGSTVEKTVAPTECS
IC50 (pseudoparticle neutralization) [1]: 1 pM
IC50 (pseudoparticle neutralization) [2]: 0.794 pM
log10 FC of IC50 relative to D614G control [2]: 3.72 log10 fold

B12: mAb14260 (antibody, V domains shown)
VH: EVQLVESGGGLVQPGGSLRLSCAASGFTFSIYEMNWVRQAPGKGLEWVSYITSSGFTIYYADSVKGRFTISRDNAKNSLYLQMHSLRAEDTAVYYCATSSSSGYYFDYWGQGTLVTVSS
VL: not shown
% Blocking at 100 nM mAb concentration [12]: 96%
IC50 [12]: 127 pM
RBD.mmh Bound at pH 7.4 (RU) [13]: 74.5 RU and 83 RU
koff [13]: 0.00188 s⁻¹ and 0.00166 s⁻¹
t½ Ratio of pH 7.4 to pH 6.0 [13]: 0.9
t½ at pH 6.0 [13]: 6.9 min
t½ at pH 7.4 [13]: 6.2 min

B13: mAb15157 (antibody, V domains shown)
VH: EVQLVESGGALVQPGGSLRLSCAASGFPFTIYAMTWVRQAPGKGLEWVSVITGSGDSTYYADSVKGRFTISRDNSKNTLYLQMNSLRAEDTAVYYCVKTGEGFFYYYYGMDVWGQGTTVTVSS
VL: QSVLTQPPSVSAAPGQKVTISCSGSSSNIGNSYISWYQQLPGTAPKLLIYVNNKRPSGIPDRFSGSKSGTSATLGITGLQTGDEADYYCGTWDSSLSAGVFGSGTKVTVLG
IC50 (pseudoparticle neutralization) [1]: 1.01 pM
IC50 (pseudoparticle neutralization) [2]: 1.15 pM
log10 FC of IC50 relative to D614G control [2]: 4.3 log10 fold
